Patent publication US20240059752A1 (ZHEJIANG DOER BIOLOGICS CO., LTD., priority 2020, published 2024)

assay: general procedure: Fmoc solid-phase peptide synthesis; Rink amide MBHA resin (0.35 mmol/g); DIC/HOBt; details: whole synthesis, scale of the general procedure 2.85 g resin

| Substance | final purity (method not given) [%] |
| --- | --- |
| HAibQGT FTSD K (2xOEG-γE-COC18H36COOH) SKYL D SQAAQDFVQWLLAGGPSSGAPPPS-NH2 | 97.1 |
| HAibQGT FTSD K (2xOEG-γE-COC18H36COOH) SKAibL D SQAAQDFVQWLLAGGPSSGAPPPS-NH2 | 95.3 |
| HAibQGT FTSDY SKAib K (2xOEG-γE-COC18H36COOH) D SQAAQDFVQWLLAGGPSSGAPPPS-NH2 | 96.0 |
